Mutational interference map of HIV-1 RNA dimerization

Sequence of the HIV-1 NL4-3 5' RNA, positions 1 to 437, as numbered in the source:
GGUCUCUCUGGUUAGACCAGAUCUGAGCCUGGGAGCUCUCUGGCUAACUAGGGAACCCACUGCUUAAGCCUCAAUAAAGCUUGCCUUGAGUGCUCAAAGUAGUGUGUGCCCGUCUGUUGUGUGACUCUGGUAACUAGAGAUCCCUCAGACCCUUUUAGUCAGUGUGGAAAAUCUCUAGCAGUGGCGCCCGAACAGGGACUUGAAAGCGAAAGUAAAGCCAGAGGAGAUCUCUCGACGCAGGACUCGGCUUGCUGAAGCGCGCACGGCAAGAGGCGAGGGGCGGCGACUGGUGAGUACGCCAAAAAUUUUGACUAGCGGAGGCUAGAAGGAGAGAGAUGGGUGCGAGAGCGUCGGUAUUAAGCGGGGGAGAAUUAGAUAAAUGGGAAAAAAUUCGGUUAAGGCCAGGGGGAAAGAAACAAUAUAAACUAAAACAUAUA

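Randomly mutated transcripts starting with one, two or three G (1G, 2G, 3G), capped or uncapped, were folded for 30 min at 37 °C. High salt was 300 mM KCl and 5 mM MgCl2, low salt 40 mM KCl and 0.1 mM MgCl2; monomer and dimer were parted on a native gel. Kdimer compares mutation frequencies in monomer and dimer, corrected for sequencing errors.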

Values are log2 Kdimer, the median over the changes at each position: higher means that changes there hinder dimer formation, below 0 that they favour it.
One numbering serves 1G, 2G and 3G.
A position is written with its base where known.

position | 2G capped high-salt | 2G capped low-salt | 2G uncapped high-salt | 2G uncapped low-salt
A411 | -0.05 | 0.07 | -0.04 | 0.16
A412 | 0.07 | -0.01 | 0.03 | 0.02
G413 | 0.02 | -0.09 | 0.12 | 0.06
A414 | 0.00 | -0.08 | 0.01 | 0.01
A415 | -0.01 | -0.05 | -0.01 | -0.02
A416 | -0.02 | 0.09 | 0.00 | 0.07
C417 | -0.15 | 0.09 | 0.00 | 0.00
A418 | 0.16 | 0.04 | 0.17 | -0.05
A419 | 0.03 | -0.03 | 0.00 | -0.01
U420 | 0.02 | 0.05 | 0.10 | -0.06
A421 | 0.06 | -0.04 | 0.07 | 0.05
U422 | 0.03 | -0.06 | 0.11 | -0.04
A423 | 0.26 | -0.02 | 0.06 | 0.04
A424 | -0.06 | 0.00 | 0.05 | 0.03
A425 | 0.10 | -0.03 | 0.14 | 0.09
C426 | 0.03 | -0.11 | 0.04 | 0.01
U427 | 0.08 | -0.01 | 0.07 | 0.01
A428 | 0.07 | 0.14 | 0.03 | 0.05
A429 | 0.10 | 0.01 | 0.04 | 0.05
A430 | 0.05 | 0.02 | 0.11 | -0.09
A431 | 0.08 | -0.03 | 0.10 | -0.05
C432 | 0.14 | 0.05 | 0.13 | -0.02
A433 | 0.15 | 0.02 | 0.00 | 0.07
U434 | -0.20 | -0.20 | -0.03 | -0.09
A435 | 0.04 | -0.06 | -0.02 | 0.00
U436 | 0.00 | -0.10 | -0.10 | -0.12
A437 | 0.05 | 0.12 | 0.06 | 0.11
438 | 0.02 | -0.01 | 0.01 | -0.01
439 | 0.04 | 0.07 | 0.00 | -0.02
440 | 0.14 | 0.08 | 0.04 | 0.00
441 | -0.03 | -0.15 | 0.06 | -0.05
442 | 0.00 | -0.02 | 0.02 | 0.03

The opening 2 entries, copied out:

position	2G capped high-salt	2G capped low-salt	2G uncapped high-salt	2G uncapped low-salt
A411	-0.05	0.07	-0.04	0.16
A412	0.07	-0.01	0.03	0.02

The source gives no letters past position 437.

Reference: Ye et al. 2022, doi:10.1038/s41594-022-00746-2.